# Experimental data published in publication PMC5244253, “Phloretin Attenuates Listeria monocytogenes Virulence Both In vitro and In vivo by Simultaneously Targeting Listeriolysin O and Sortase A” (Frontiers in Cellular and Infection Microbiology, 2017).
# Chains of the proteins cited; added tags and fusions are not shown. Residues count along the entry.
# UniProt Q8Y8H5, 71-222 V201A: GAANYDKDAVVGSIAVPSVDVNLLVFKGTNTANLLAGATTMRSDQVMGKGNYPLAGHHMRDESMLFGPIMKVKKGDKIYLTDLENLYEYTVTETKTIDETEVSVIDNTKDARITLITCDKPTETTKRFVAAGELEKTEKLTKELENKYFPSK
# UniProt Q8Y8H5, 71-222 T162A: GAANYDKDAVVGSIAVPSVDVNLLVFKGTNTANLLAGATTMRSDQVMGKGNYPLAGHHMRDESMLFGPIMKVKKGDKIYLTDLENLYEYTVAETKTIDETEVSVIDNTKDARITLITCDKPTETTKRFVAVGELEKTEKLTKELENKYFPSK
# UniProt Q8Y8H5, 71-222 I175A: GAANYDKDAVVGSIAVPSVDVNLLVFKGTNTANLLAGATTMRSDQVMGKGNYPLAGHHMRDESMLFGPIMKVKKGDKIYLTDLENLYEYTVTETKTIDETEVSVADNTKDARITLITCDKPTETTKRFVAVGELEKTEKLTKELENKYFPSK
# How the values were obtained:
# [1] = system: L. monocytogenes escape from internalization vacuoles in Caco-2 cells; assay: Bacterial escape from internalization vacuoles into cytoplasm (confocal microscopy); settings: EGDe strain, phloretin 58.34 μM, with or without pre-incubation; 3 h or 5 h post-infection; F-actin colocalization
# [2] = target: V129A (Listeria monocytogenes serovar 1/2a, UniProt Q8Y8H5, V201A); settings: phloretin 14.59 or 58.34 μM, compared with WT-SrtA
# [3] = target: SrtA T90A (Listeria monocytogenes serovar 1/2a, UniProt Q8Y8H5, T162A); settings: phloretin 14.59 or 58.34 μM, compared with WT-SrtA
# [4] = target: SrtA I103A (Listeria monocytogenes serovar 1/2a, UniProt Q8Y8H5, I175A); settings: phloretin 14.59 or 58.34 μM, compared with WT-SrtA
compound,measurement,setting,value
O=C(CCc1ccc(O)cc1)c1c(O)cc(O)cc1O [phloretin],bacterial escape from vacuoles into cytoplasm,[1],significantly decreased
same,inhibitory effect against SrtA mutant activity,[2],much lower than that against WT-SrtA
same,inhibitory effect against SrtA mutant activity,[3],much lower than that against WT-SrtA
same,inhibitory effect against SrtA mutant activity,[4],much lower than that against WT-SrtA
